Usually EC50 stands for the concentration giving half of the maximal effect.

Here are results for two molecules from patent publication US20170204167A1 (INSTITUTE FOR RESEARCH IN BIOMEDICINE, published 2017).

The experiment addresses HA of H7N7 A/Netherlands/219/03 (influenza A virus H7N7 …). As to the kind of experiment: ELISA on recombinant or purified HA. For orientation: An ELISA detects its analyte on a solid surface through an enzyme-linked reagent.

B1: FI6 variant 2 (antibody, V domains shown)
VH: QVQLVQSGGGVVQPGRSLRLSCVASGFTFSTYAMHWVRQAPGRGLEWVAVISYDGNYKYYADSVKGRFSISRDNSNNTLHLEMNTLRTEDTALYYCAKDSQLRSLLYFEWLSQGYFDPWGQGTLVTVTS
VL: DIQMTQSPDSLAVSLGARATINCKSSQSVTFNYKNYLAWYQQKPGQPPKVLIYWASARESGVPDRFSGSGSGTDFTLTISSLQAEDVAVYYCQQHYRTPPTFGQGTKVEIK
With B1, the EC50 was found to be 0.026 µg/mL.

B2: FI6 variant 3 (antibody, V domains shown)
VH: QVQLVESGGGVVQPGRSLRLSCAASGFTFSTYAMHWVRQAPGKGLEWVAVISYDANYKYYADSVKGRFTISRDNSKNTLYLQMNSLRAEDTAVYYCAKDSQLRSLLYFEWLSQGYFDYWGQGTLVTVSS
VL: DIVMTQSPDSLAVSLGERATINCKSSQSVTFNYKNYLAWYQQKPGQPPKLLIYWASTRESGVPDRFSGSGSGTDFTLTISSLQAEDVAVYYCQQHYRTPPTFGQGTKVEIK
Turning to B2, the half-maximal effective concentration (EC50) came to 0.029 µg/mL.
